Results of unrelated studies side by side (data: NIAID ChemDB).

Shared fields: whole-cell or culture tests; agent: Varicella zoster virus; cell line: HEL; read-out: EC50

Lines come from different laboratories, so protocols vary.

smiles,strain or isolate,method,result
Nc1nc2c(ncn2CC(CO)OCP(=O)(O)O)c(=O)[nH]1,YS/R (TK-),plaque count,0.07 µg/mL
O=c1nc2oc(CCCC3OCCCO3)cc2cn1[C@H]1C[C@H](O)[C@@H](CO)O1,YS/R (TK-),plaque count,>200 µM
Nc1cc(OCCOCP(=O)(O)O)nc(N)n1,OKA,cytopathic effect,4.5 µM
O=c1[nH]c(=O)n([C@H]2C[C@H](O)[C@@H](CO)O2)cc1/C=C/Br,YS/R (TK-),cytopathic effect,>400 µg/mL
CCCc1ccc(OCCCc2cc3cn([C@H]4C[C@H](O)[C@@H](CO)O4)c(=O)nc3o2)cc1,(TK-)07/1,plaque count,>50 µM
Nc1nc2c(ncn2COC(CO)CO)c(=O)[nH]1,ULF PE 9/84 (TK+),,6.2–30 µM
CCCCCCCCCCc1cc2cn([C@H]3C[C@H](O)[C@@H](CO)O3)c(=O)nc2n1C,07/1 (TK-),plaque count,>50 µM
CCOc1ccc(-c2cc3cn([C@H]4C[C@H](O)[C@@H](CO)O4)c(=O)nc3o2)cc1,07/1 (TK-),plaque count,45 µM
CCCCCCCCCCc1cc2cn([C@H]3C[C@H](O)[C@@H](CO)O3)c(=O)nc2n1CCC,YS,plaque count,>5 µM
CCCCCCOc1ccc(-c2cc3cn([C@H]4C[C@H](O)[C@@H](CO)O4)c(=O)nc3o2)cc1,YS,cytopathic effect,<0.5 µM
CCCCCCc1cc2cn([C@H]3C[C@H](O)[C@@H](CO)O3)c(=O)nc2[nH]1,YS,plaque count,>50 µM
Nc1ccn(C[C@@H](CO)OCP(=O)(O)O)c(=O)n1,Oka CF1742-resistant,cytopathic effect,0.29 µM
Nc1nc2c(ncn2C[C@H]2CCC[C@H]2CO)c(=O)[nH]1,07/1 (TK-),plaque count,>50 µg/mL
Nc1nc2c(ncn2C[C@]2(CO)C[C@H]2CO)c(=O)[nH]1,Kawaguchi,plaque count,0.67 µg/mL
CCCCCCCCCCc1cc2cn([C@H]3C[C@H](O)[C@@H](CO)O3)c(=O)nc2n1CC,OKA,plaque count,>5 µM
O=c1nc2oc(-c3ccc(Br)cc3)cc2cn1[C@H]1C[C@H](O)[C@@H](CO)O1,07/1 (TK-),cytopathic effect,>50 µM
Cc1c(N)nc(N)nc1OCCOCP(=O)(O)O,07/1 (TK-),cytopathic effect,42 µM
Nc1ncnc2c1ncn2[C@@H]1C[C@H](CO)[C@@H](O)[C@@H]1O,YS-V10 H12,plaque count,0.9 µg/mL
NC1=NS(=O)(=O)N(Cc2ccccc2)c2nc(-c3ccc(Cl)cc3)[nH]c21,YS,plaque count,4.1 µg/mL
Nc1nc(N)c2ncn(CCOCP(=O)(O)O)c2n1,Oka penciclovir-resistant/A,cytopathic effect,21.9 µM
NC1=NC2C(C=CN2CC(CO)CCO)C(=O)N1,07/1 (TK-),cytopathic effect,4.6 µg/mL
Nc1nc(N)c2ncn(C[C@H]3CCC[C@H]3CO)c2n1,YS (TK+),plaque count,>50 µg/mL
O=c1[nH]c(=O)n([C@H]2C[C@H](O)[C@@H](CO)O2)cc1I,ULF PE 9/84 (TK+),,30–75 µM
Nc1nc2c(ncn2CCC(CO)CO)c(=O)[nH]1,Clinical isolate VZV-23,cytopathic effect,2.62 µM
CCCCCc1ccc(-c2cc3cn([C@H]4C[C@H](O)[C@@H](CCl)O4)c(=O)nc3o2)cc1,,,>5 µM
O=c1[nH]c(=O)n([C@H]2C[C@H](O)[C@@H](CO)O2)cc1/C=C/Br,TK-,,>100 µM
CCCCCCCc1cc2cn([C@H]3C[C@H](O)[C@@H](CO)O3)c(=O)nc2o1,YS,plaque count,0.33 µM
O=C(O)P(=O)(O)O,Oka acyclovir-resistant,cytopathic effect,36 µM
CCCCOc1ccc(-c2cc3cn([C@H]4C[C@H](O)[C@@H](CO)O4)c(=O)nc3o2)cc1,OKA,cytopathic effect,<0.5 µM
Nc1nc2ncn(CCOCP(=O)(O)O)c2c(=O)[nH]1,YS (TK+),plaque count,0.03 µg/mL
CCCCCCOCCCc1cc2cn([C@H]3C[C@H](O)[C@@H](CO)O3)c(=O)nc2o1,YS,plaque count,8.1 µM
CCCCCCCCCCCCc1cc2cn([C@H]3C[C@H](O)[C@@H](CO)O3)c(=O)nc2o1,YS/R (TK-),plaque count,>20 µM
COc1ccc(-c2cc3cn([C@H]4C[C@H](O)[C@@H](CO)O4)c(=O)nc3o2)cc1,YS/R (TK-),cytopathic effect,>50 µM
Nc1nc2c(ncn2COCCO)c(=O)[nH]1,TK-,,200 µM
CCCCCCCCc1cc2cn([C@H]3C[C@H](Cl)[C@@H](CO)O3)c(=O)nc2o1,,,>5 µM
CCCOCCOCCCc1cc2cn([C@H]3C[C@H](O)[C@@H](CO)O3)c(=O)nc2o1,OKA,plaque count,>200 µM
CCOP(=O)(O)COCCn1cnc2c(=O)[nH]c(N)nc21,YS (TK+),plaque count,0.01 µg/mL
CCCCCCCOc1ccc(-c2cc3cn([C@H]4C[C@H](O)[C@@H](CO)O4)c(=O)nc3o2)cc1,YS,plaque count,0.006 µM
OC[C@H]1O[C@@H](c2cc(C(O)C(Br)Br)c(F)cc2F)C[C@@H]1O,YS/R (TK-),plaque count,126 µg/mL
CCCCCCCCCCCc1cc2cn([C@H]3C[C@H](O)[C@@H](CO)O3)c(=O)nc2o1,OKA,plaque count,0.4 µM
O=c1[nH]c(=O)n([C@H]2C[C@H](Cl)[C@@H](CO)O2)cc1I,,,>5 µM
Nc1ncc2ncn(C[C@H]3CCC[C@H]3CO)c2n1,YS/R (TK-),plaque count,>50 µg/mL
O=c1nc2oc(CCCOc3ccccc3)cc2cn1[C@H]1C[C@H](O)[C@@H](CO)O1,TK+/YS,plaque count,92 µM
N#CCc1c(N)nc(N)nc1OCCOCP(=O)(O)O,07/1 (TK-),cytopathic effect,110 µM
CCCCCOc1ccc(-c2cc3cn([C@H]4C[C@H](O)[C@@H](CO)O4)c(=O)nc3o2)cc1,OKA,plaque count,0.001 µM
CCCCCOc1ccc(-c2cc3cn([C@H]4C[C@H](O)[C@@H](CO)O4)c(=O)nc3o2)cc1,YS,plaque count,0.001 µM
Cc1cn([C@H]2C/C(=N\O)[C@@H](CO)O2)c(=O)[nH]c1=O,YS/R (TK-),cytopathic effect,>200 µg/mL
Nc1nccc2c1ncn2C[C@@H](CO)OCP(=O)(O)O,OKA (TK+),plaque count,0.06 µg/mL
NC1=NS(=O)(=O)N(Cc2ccccc2)c2nc[nH]c21,OKA,plaque count,>50 µg/mL
Nc1ncnc2c1ncn2C[C@H](O)CO,YS,cytopathic effect,10 µg/mL
CCCCCCOc1ccc(-c2cc3cn([C@H]4C[C@H](O)[C@@H](CO)O4)c(=O)nc3o2)cc1,OKA,plaque count,0.0015 µM
Nc1ncnc2c1ncn2C[C@@H](CO)OCP(=O)(O)O,YS/R (TK-),plaque count,0.02 µg/mL
CCCCCCOc1ccc(-c2cc3cn([C@H]4C[C@H](O)[C@@H](CO)O4)c(=O)nc3o2)cc1,YS,plaque count,0.0014 µM

6 of the rows above, restated:

smiles,strain or isolate,method,result
Nc1ncnc2c1ncn2C[C@H](O)CO,YS,cytopathic effect,10 µg/mL
Nc1nc2c(ncn2CCC(CO)CO)c(=O)[nH]1,Clinical isolate VZV-23,cytopathic effect,2.62 µM
Nc1nc(N)c2ncn(CCOCP(=O)(O)O)c2n1,Oka penciclovir-resistant/A,cytopathic effect,21.9 µM
Cc1c(N)nc(N)nc1OCCOCP(=O)(O)O,07/1 (TK-),cytopathic effect,42 µM
N#CCc1c(N)nc(N)nc1OCCOCP(=O)(O)O,07/1 (TK-),cytopathic effect,110 µM
CCCCOc1ccc(-c2cc3cn([C@H]4C[C@H](O)[C@@H](CO)O4)c(=O)nc3o2)cc1,OKA,cytopathic effect,<0.5 µM

An empty or dashed field is not shown. ECn is the concentration giving n% inhibition of infection, replication or growth. Two numbers with a dash give a range or band.